# Experimental data as given in patent US20230365632A1, “A GROUP OF PEPTIDE DERIVATIVE OMICSYNINS WITH ANTIVIRAL ACTIVITY AND USES THEREOF” (INSTITUTE OF MEDICINAL BIOTECHNOLOGY CHINESE ACADEMY OF …, priority 2020, published 2023).
# Like-named read-outs stand apart in the source and are kept apart here. *1 amine or outer side, *2 acyl side, *3 side chain or, on linkers, in order; H or OH if unused. Where a SMILES comes first, the peptide text is derived from it. [ ]: non-standard residue; d: D form. Phe(ol) = N[CH](CO)Cc1ccccc1; CO = O=C([*:1])[*:2]
# What was measured:
# [1] = test system: influenza virus A/wuhan/359/95 (H3N2); type: cell-based
# coronavirus HCoV-229E = experiment: CPE inhibition assay against HCoV-229E in Huh7.5 cells; type: cell-based; conditions: Table 10; TC50/IC50
smiles,measurement,setting,value
"CC(C)C(NC(=O)C(CCCNC(=N)N)NC(=O)NC(Cc1ccccc1)C(=O)O)C(=O)NC(CO)Cc1ccccc1 (stereo not drawn) [Omicsynin A3, Chymostatinol A] ({Phe-CO}-Arg-Val-[Phe(ol)]; configuration not given here)",A/Wuhan/359/1995 (H3N2) SI,[1],> 3.82
same,HCoV-229E SI,coronavirus HCoV-229E,> 2.93
"CC(C)[C@H](NC(=O)[C@H](CCCNC(=N)N)NC(=O)N[C@@H](Cc1ccccc1)C(=O)O)C(=O)N[C@H](C=O)CCCNC(=N)N [Omicsynin B4, Antipain] ({Phe-CO}-Arg-Val-Arg-aldehyde)",A/Wuhan/359/1995 (H3N2) SI,"[1]; Table 9, TC50/IC50",> 136.05
same,HCoV-229E SI,coronavirus HCoV-229E,> 186.34
CCOC(=O)C1=C[C@@H](OC(CC)CC)[C@H](NC(C)=O)[C@@H](N)C1 [Oseltamivir Phosphate],A/Wuhan/359/1995 (H3N2) SI,"[1]; Table 5, TC50/IC50",287.3
CCOC(=O)C1=C[C@@H](OC(CC)CC)[C@H](NC(C)=O)[C@@H](N)C1 [Oseltamivir],A/wuhan/359/95(H3N2) SI,"[1]; Table 1, positive drug, TC50/IC50",773
same,A/wuhan/359/95(H3N2) SI,"[1]; Table 2, TC50/IC50",773.0
same,A/Wuhan/359/1995 (H3N2) SI,"[1]; Table 3, TC50/IC50",287.3
same,A/Wuhan/359/1995 (H3N2) SI,"[1]; Table 4, positive drug, TC50/IC50",>565.0
same,A/Wuhan/359/1995 (H3N2) SI,"[1]; Table 6, TC50/IC50",233.7
"CC(C)C[C@H](NC(=O)[C@@H](NC(=O)N[C@@H](Cc1ccccc1)C(=O)O)[C@@H]1CCN=C(N)N1)C(=O)N[C@H](C=O)Cc1ccccc1 [chymostatin, Chymostatin]",A/Wuhan/359/1995 (H3N2) SI,[1],> 1.00
same,HCoV-229E SI,coronavirus HCoV-229E,> 6.93
